Measured values taken from US11414378B2, “Anti-fungals compounds targeting the synthesis of fungal sphingolipids” (THE RESEARCH FOUNDATION FOR THE STATE UNIVERSITY OF NEW YORK, priority 2017, dated 2022).

What was measured:
[1] = tested on: HepG2; assay: HepG2 toxicity; assay type: cell-based; conditions: Tables 1-3
[2] = tested on: A549; assay: A549 toxicity; assay type: cell-based; conditions: for SI-A549/MIC: Tables 1-3; for SIMIC: selectivity index A549/MIC, Example 2 table

O=C(N/N=C/c1ccc(Br)cc1O)c1cc(Br)cc(Br)c1O [drawing 79]
SI-HepG2/MIC [1]: 533.3 µg/mL
SI-A549/MIC [2]: 533.3 µg/mL

O=C(N/N=C/c1ccc(Br)cc1O)c1cccc(Br)c1
SI-HepG2/MIC [1]: 18 µg/mL
SI-A549/MIC [2]: 128 µg/mL

O=C(N/N=C/c1c(O)ccc2ccccc12)c1ccc(Br)cc1Br
SI-HepG2/MIC [1]: 533.3 µg/mL
SI-A549/MIC [2]: 133.3 µg/mL

O=C(N/N=C/c1cc(Br)ccc1O)c1ccc(Br)cc1Br
SI-HepG2/MIC [1]: 491.66 µg/mL
SI-A549/MIC [2]: 533.3 µg/mL

O=C(N/N=C/c1cc(Cl)ccc1O)c1ccc(Br)cc1Br
SI-HepG2/MIC [1]: 256 µg/mL
SI-A549/MIC [2]: 256 µg/mL

Cc1ccc(O)c(/C=N/NC(=O)c2cc(Br)ccc2O)c1
SI-HepG2/MIC [1]: 64 µg/mL
SI-A549/MIC [2]: 64 µg/mL

O=C(N/N=C/c1cc(Cl)cc(Cl)c1O)c1ccc(Br)cc1Br
SI-HepG2/MIC [1]: 64 µg/mL
SI-A549/MIC [2]: 128 µg/mL

O=C(N/N=C/c1cc(Br)ccc1O)c1cc(Br)ccc1Br
SI-HepG2/MIC [1]: 128 µg/mL
SI-A549/MIC [2]: 64 µg/mL

Cc1ccc(O)c(/C=N/NC(=O)c2cc(Br)ccc2Br)c1
SI-HepG2/MIC [1]: 32 µg/mL
SI-A549/MIC [2]: 32 µg/mL

O=C(N/N=C/c1c(O)ccc2ccccc12)c1cc(Br)ccc1Br
SI-HepG2/MIC [1]: 64 µg/mL
SI-A549/MIC [2]: 128 µg/mL

O=C(N/N=C/c1ccc(Br)cc1O)c1cc(Br)ccc1Br
SI-HepG2/MIC [1]: 133.3 µg/mL
SI-A549/MIC [2]: 266.6 µg/mL

O=C(N/N=C/c1cc(Cl)cc(Cl)c1O)c1cc(Br)ccc1Br
SI-HepG2/MIC [1]: 64 µg/mL
SI-A549/MIC [2]: 64 µg/mL

O=C(N/N=C/c1cc(Cl)ccc1O)c1cc(Br)ccc1Br
SI-A549/MIC [2]: 236 µg/mL

O=C(N/N=C/c1cc(Br)ccc1O)c1cc(Br)cc(Br)c1O [Compound 17]
SIMIC [2]: 32

Cc1ccc(O)c(/C=N/NC(=O)c2ccc(Br)cc2Br)c1
SI-HepG2/MIC [1]: 16 µg/mL
SI-A549/MIC [2]: 32 µg/mL

Cc1ccccc1C(=O)N/N=C/c1cc(Br)ccc1O [Compound 1]
SIMIC [2]: 32

O=C(N/N=C/c1cc(Br)cc(Br)c1O)c1cnc2ccccc2c1 [drawing 62]
SI-HepG2/MIC [1]: 128 µg/mL
SI-A549/MIC [2]: 128 µg/mL

Cc1ccc(O)c(/C=N/NC(=O)c2cc(Br)cc(Br)c2O)c1 [drawing 66]
SI-HepG2/MIC [1]: 32 µg/mL
SI-A549/MIC [2]: 16 µg/mL

O=C(N/N=C/c1ccc(Br)cc1O)c1cccc(F)c1F
SI-HepG2/MIC [1]: 32 µg/mL
SI-A549/MIC [2]: 32 µg/mL

O=C(N/N=C/c1ccc(Br)cc1O)c1ccc(Br)cc1Br
SI-HepG2/MIC [1]: 2133.3 µg/mL
SI-A549/MIC [2]: 1066 µg/mL

O=C(N/N=C/c1cc(Br)cc(Br)c1O)c1ccc(Br)cc1 [Compound 13]
SIMIC [2]: 4266.6

O=C(N/N=C/c1cc(Cl)ccc1O)c1cccc(F)c1F
SI-HepG2/MIC [1]: 32 µg/mL
SI-A549/MIC [2]: 72 µg/mL

O=C(N/N=C/c1cc(Br)ccc1O)c1cccc(Br)c1 [Compound 2]
SIMIC [2]: 64

O=C(N/N=C/c1ccc(Br)cc1O)c1ccc(Br)cc1
SI-HepG2/MIC [1]: 533.3 µg/mL
SI-A549/MIC [2]: 266.6 µg/mL
